A mixed list of measured activities; the numbers were collected in NIAID ChemDB.

All rows: enzyme or target tests; organism: HIV-1; target: Reverse transcriptase; read-out: fold resistance

Fold resistance has wild type as its base.

{"compound": "O=C(CSc1nnnn1-c1c(Cl)cccc1Cl)Nc1ccccc1[N+](=O)[O-]", "mutations": "RT-K103N Y181C", "read by": "fluorescence", "result": ">2"}
{"compound": "CCC(=O)c1ccc(F)c([C@H]2C[C@H]2NC(=O)Nc2ccc(Br)cn2)c1O", "strain": "IIIB", "mutations": "RT-L100I", "result": "2.92"}
{"compound": "CCN1c2ncc(CCOc3ccc(/C=C(\\C)C(=O)O)c4ccccc34)cc2C(=O)N(C)c2ccc(F)nc21", "mutations": "RT-Y188L", "read by": "nucleotide incorporation / radiometric", "result": ">10"}
{"compound": "COc1ccc2c(c1)N(C(=O)OC(C)C)[C@@H](CSC)C(=S)N2", "mutations": "RT-W229Y", "read by": "radiometric", "result": "1.42"}
{"compound": "CCN1c2ncc(CCOc3ccc(C(=O)Nc4ccc(CC(=O)O)cc4)cc3C)cc2C(=O)Nc2c(C)ccnc21", "strain": "IIIB", "mutations": "RT-K103N Y181C", "read by": "nucleotide incorporation / radiometric", "result": "1"}
{"compound": "Cc1cc(C)c(-n2nnnc2SCC(=O)Nc2ccc3c(c2)OCO3)c(C)c1", "mutations": "RT-K103N Y181C", "read by": "fluorescence", "result": ">2"}
{"compound": "CC(C)=CCOc1cc(NC(=S)c2ccoc2C)ccc1Cl", "mutations": "RT-W229Y", "read by": "nucleotide incorporation", "result": "21.81"}
{"compound": "Cc1cc(C)cc(S(=O)(=O)c2c(C(=O)NCCO)[nH]c3ccc(Cl)cc23)c1", "mutations": "RT-Y181I", "read by": "nucleotide incorporation / radiometric", "result": "1340"}
{"compound": "CC[C@H]1C(=O)Nc2ccc(F)cc2N1C(=O)OC(C)C", "mutations": "RT-W229Y", "read by": "radiometric", "result": "4.75"}
{"compound": "Cc1occc1C(=S)Nc1ccc(Cl)c(/C=N/OC(C)(C)C)c1", "mutations": "RT-Y181C", "read by": "nucleotide incorporation / radiometric", "result": "2.85"}
{"compound": "Cc1c(Cc2ccccc2)nc(SCCCCO)[nH]c1=O", "mutations": "RT-Y181I", "result": "8.26"}
{"compound": "CCN1c2ncc(CCOc3ccc(C(=O)N(C)c4ccc(C(=O)O)cc4)cc3C)cc2C(=O)N(C)c2cccnc21", "strain": "IIIB", "mutations": "RT-K103N Y181C", "read by": "nucleotide incorporation / radiometric", "result": ">1"}
{"compound": "CCOC(=O)CNC(=O)c1ccc(NC(=O)CSc2nnc(Br)n2-c2ccc(C3CC3)c3ccccc23)c(Cl)c1", "mutations": "RT-Y181C", "read by": "nucleotide incorporation / radiometric", "result": ">1"}
{"compound": "CC(C)Nc1cccnc1N1CCN(C(=O)c2cc3ccc(O)cc3[nH]2)CC1", "mutations": "RT-Y188L", "read by": "scintillation proximity", "result": "2.27"}
{"compound": "CCN1c2ncc(CCOc3ccc(/C=C(\\C)C(=O)O)c4ccccc34)cc2C(=O)N(C)c2ccc(C)nc21", "mutations": "RT-Y188L", "read by": "nucleotide incorporation / radiometric", "result": ">10"}
{"compound": "CCOC(=O)[C@H](Cc1ccc(O)cc1)NC(=O)c1ccc(NC(=O)CSc2nnc(Br)n2-c2ccc(C3CC3)c3ccccc23)c(Cl)c1", "mutations": "RT-Y181C", "read by": "nucleotide incorporation / radiometric", "result": "<1"}
{"compound": "CCOCn1c(Cc2ccccc2)c(C(C)C)c(=O)[nH]c1=O", "mutations": "RT-W229F", "read by": "radiometric", "result": "1.06"}
{"compound": "CCN1c2ncc(CCOc3ccc(CC(=O)O)c4c3CCCC4)cc2C(=O)N(C)c2cccnc21", "mutations": "RT-Y188L", "read by": "nucleotide incorporation / radiometric", "result": ">10"}
{"compound": "CCN1c2ncc(CCOc3ccc(-c4cnc[nH]4)cc3C)cc2C(=O)N(C)c2cccnc21", "strain": "IIIB", "mutations": "RT-K103N Y181C", "read by": "nucleotide incorporation / radiometric", "result": "1"}
{"compound": "O=C(CSc1nnc(Br)n1-c1ccc(C2CC2)cc1C(F)(F)F)Nc1ccc(C(=O)O)cc1Cl", "mutations": "RT-Y188L", "read by": "nucleotide incorporation / radiometric", "result": ">2"}
{"compound": "C=CCO/N=C/c1cc(NC(=S)c2ccoc2C)ccc1Cl", "mutations": "RT-P236L", "read by": "nucleotide incorporation / radiometric", "result": "1"}
{"compound": "Nc1nc2c(ncn2[C@H]2CC[C@@H](COP(=O)(O)OP(=O)(O)OP(=O)(O)O)O2)c(=O)[nH]1", "mutations": "RT-W229F", "read by": "radiometric", "result": "1.61"}
{"compound": "CCc1ccc(-n2c(Br)nnc2SCC(=O)Nc2ccc(C(=O)O)cc2C)c2ccccc12", "mutations": "RT-Y181C", "read by": "nucleotide incorporation / radiometric", "result": ">1"}
{"compound": "CC(C)=CCN1Cc2cccc3[nH]c(=S)n(c23)C[C@@H]1C", "mutations": "RT-Y181C", "read by": "nucleotide incorporation", "result": "8.74"}
{"compound": "CCN1c2ncc(CCOc3ccc(CC(C)C(=O)O)c4ccccc34)cc2C(=O)N(C)c2ccc(F)nc21", "mutations": "RT-V106A", "read by": "nucleotide incorporation / radiometric", "result": ">10"}
{"compound": "Cc1occc1C(=S)Nc1ccc(Cl)c(C(=O)OCC2CC2)c1", "mutations": "RT-L108I", "read by": "nucleotide incorporation / radiometric", "result": "3.83"}
{"compound": "CCOC(=O)C(=O)CC(=O)/C=C/c1cccn1Cc1ccccc1Cl", "mutations": "N474A", "read by": "RNase H / radiometric", "result": "12.2"}
{"compound": "CCCc1cc(=O)oc2c3c(c4c(c12)OC(C)(C)C=C4)O[C@H](C)C[C@@H]3O", "mutations": "RT-L100I", "read by": "nucleotide incorporation / radiometric", "result": "3.4"}
{"compound": "CCN1c2ncc(CCOc3ccc(Nc4cccc(CC(=O)O)c4)cc3C)cc2C(=O)N(C)c2cccnc21", "strain": "IIIB", "mutations": "RT-K103N Y181C", "read by": "nucleotide incorporation / radiometric", "result": "1"}
{"compound": "O=C(CSc1nnnn1-c1ccccc1C(F)F)Nc1ccccc1[N+](=O)[O-]", "mutations": "RT-K103N Y181C", "read by": "fluorescence", "result": "≥1.33"}

Repeating the final 2 entries:

compound,strain,mutations,read by,result
CCN1c2ncc(CCOc3ccc(Nc4cccc(CC(=O)O)c4)cc3C)cc2C(=O)N(C)c2cccnc21,IIIB,RT-K103N Y181C,nucleotide incorporation / radiometric,1
O=C(CSc1nnnn1-c1ccccc1C(F)F)Nc1ccccc1[N+](=O)[O-],,RT-K103N Y181C,fluorescence,≥1.33

Lines come from different laboratories, so protocols vary. Blank or dashed fields: not listed here.